Results of unrelated studies side by side (data: NIAID ChemDB).

Shared fields: host cell toxicity; cell line: VERO; method: MTT; endpoint: CC50

CCn is the concentration with n% toxicity to the cells. Rows are shuffled and stem from different studies.

| SMILES | result |
|---|---|
| CC(Oc1ccc(-c2nc(N)nc(N)n2)cc1)c1ccc(Cl)cc1Cl | 405 µM |
| CC[C@@H](C(C)C)[C@@H](O)[C@H](O)[C@@H](C)[C@H]1CC[C@H]2[C@@H]3CC(=O)C4C[C@@H](F)CC[C@]4(C)[C@H]3CC[C@]12C | 215 µM |
| COc1ccc(Nc2c3ccccc3nc3oc4ccccc4c23)cc1 | 3.63 µg/mL |
| CC(Oc1ccc(-c2nc(N)nc(N)n2)cc1)c1ccc(F)cc1 | 344 µM |
| CC[C@@H](C(C)C)[C@@H](O)[C@H](O)[C@@H](C)[C@H]1CC[C@H]2[C@@H]3CC(=O)[C@@]4(O)C[C@@H](Br)CC[C@]4(C)[C@H]3CC[C@]12C | 36 µM |
| Cn1c2ccccc2c2cc(C=NNc3nc(-c4ccc(Br)cc4)cs3)ccc21 | 393 µM |
| CC[C@H](/C=C/[C@@H](C)[C@H]1CC[C@H]2[C@@H]3CC(=O)[C@@]4(Cl)C[C@@H](F)CC[C@]4(C)[C@H]3CC[C@]12C)C(C)C | 858 µM |
| Cn1c2ccccc2c2cc(C=NNc3nc(-c4cc5cc(Br)ccc5oc4=O)cs3)ccc21 | 401.7 µM |
| CC(Oc1ccc(-c2nc(N)nc(N)n2)cc1)c1ccccc1 | 315.6 µM |
| COc1ccc2c3c([nH]c2c1)C(C)=NCC3 | 30 µg/mL |
| CC(Oc1ccc(-c2nc(N)nc(N)n2)cc1)C1CCCC1 | 405 µM |
| CN(C)c1c2ccccc2nc2oc3ccccc3c12 | >30 µg/mL |
| Cn1c2ccccc2c2cc(C=NNc3nc(-c4ccc(O)cc4)cs3)ccc21 | 271.1 µM |
| Nc1nc(N)nc(-c2ccc(OCc3ccc(F)cc3)cc2)n1 | 337 µM |
| Cn1c2ccccc2c2cc(C=NNc3nc(-c4ccc(F)cc4)cs3)ccc21 | 268.5 µM |
| CC[C@@H](C(C)C)[C@@H](O)[C@H](O)[C@@H](C)[C@H]1CC[C@H]2[C@@H]3CC(=O)[C@H]4C[C@@H](OC(C)=O)CC[C@]4(C)[C@H]3CC[C@]12C | 238 µM |
| CNc1c2ccccc2nc2oc3ccccc3c12 | 5.55 µg/mL |
| Cn1c2ccccc2c2cc(C=NNc3nc(-c4cccc([N+](=O)[O-])c4)cs3)ccc21 | 306 µM |

A second listing of 3 rows from above:

SMILES,result
CC[C@@H](C(C)C)[C@@H](O)[C@H](O)[C@@H](C)[C@H]1CC[C@H]2[C@@H]3CC(=O)C4C[C@@H](F)CC[C@]4(C)[C@H]3CC[C@]12C,215 µM
CC(Oc1ccc(-c2nc(N)nc(N)n2)cc1)C1CCCC1,405 µM
COc1ccc(Nc2c3ccccc3nc3oc4ccccc4c23)cc1,3.63 µg/mL